Reference: US20230337678A1, “NITRIC OXIDE-RELEASING ANTIBACTERIAL COMPOUNDS, FORMULATIONS, AND METHODS PERTAINING THERETO” (KNOW BIO, LLC, priority 2020, published 2023)

Legend:
Mycobacterium abscessus = test: MIC/MBC assays, CLSI method; format: cell-based
Staphylococcus aureus = test: MIC/MBC assays, CLSI method; format: cell-based
Haemophilus influenzae = test: MIC/MBC assays, CLSI method; conditions: N0097; Chloramphenicol-R, Tet-R, and Amp-R
Streptococcus pyogenes = test: MIC/MBC assays, CLSI method; conditions: N0098; Erythromycin-resistant
Escherichia coli = test: MIC/MBC assays, CLSI method; conditions: N0077; Carb-R; 3rd-gen ceph-R; ESBL+, MDR
Acinetobacter baumannii = test: MIC/MBC assays, CLSI method; conditions: N0075; Carb-R, XDR; Gram-negative
Burkholderia conocepacia = test: MIC/MBC assays, CLSI method; conditions: N0034; Clinical isolate
P. aeruginosa (PAK) = test: Time-kill study at different pH conditions
[1] = M. abscessus N0018, clinical isolate, replicates 1 and 2
[2] = M. abscessus N0018, clinical, Table 14, unit not given
[3] = M. abscessus N0019, clinical isolate, replicates 1 and 2
[4] = M. abscessus N0019, clinical, Table 14, unit not given
[5] = M. abscessus N0020, clinical isolate, replicates 1 and 2
[6] = M. abscessus N0020, clinical, Table 14, unit not given
[7] = M. abscessus N0046, Table 14, unit not given
[8] = N0019, Clinical isolate (Table 9)
[9] = S. aureus N0040, MRSA, clinical isolate, Table 10, unit not given
[10] = Staphylococcus aureus(MRSA) N0040, Clinical isolate, MDR, MRSA, Vanco-S
[11] = Staphylococcus aureus(MSSA) N0007, Wichita, ATCC 29213

[O-]/[N+](=N\O)C(/[N+]([O-])=N/O)/[N+]([O-])=N/O
MIC (Mycobacterium abscessus; M. abscessus N0017, clinical, Table 14, unit not given): 0.25 | MBC (Mycobacterium abscessus; [1]): 1 mg/mL (≈ 5100 µM) | MIC (Mycobacterium abscessus; [1]): 0.25 mg/mL (≈ 1270 µM) | MBC (Mycobacterium abscessus; [2]): 1 | MIC (Mycobacterium abscessus; [2]): 0.25 | MBC (Mycobacterium abscessus; [3]): 1 mg/mL (≈ 5100 µM) | MIC (Mycobacterium abscessus; [3]): 0.25 mg/mL (≈ 1270 µM) | MBC (Mycobacterium abscessus; [4]): 1 | MIC (Mycobacterium abscessus; [4]): 0.25 | MB (Mycobacterium abscessus; [5]): 1 mg/mL | MIC (Mycobacterium abscessus; [5]): 0.25 mg/mL (≈ 1270 µM) | MBC (Mycobacterium abscessus; [6]): 1 | MIC (Mycobacterium abscessus; [6]): 0.25 | MBC (Mycobacterium abscessus; M. abscessus N0046, Ordway, replicates 1 and 2): 1 mg/mL (≈ 5100 µM) | MIC (Mycobacterium abscessus; M. abscessus N0046, Ordway, replicates 1 and 2, listed as VT-20-110, sodium salt): 0.5 mg/mL and 0.25 mg/mL | MBC (Mycobacterium abscessus; [7]): 1 | MIC (Mycobacterium abscessus; [7]): 0.25 | effectiveness at killing bacteria relative to cis-DMP/NO (Mycobacterium abscessus; M. abscessus strains, Table 14): four times as effective | MBC, rep 1 (Mycobacterium abscessus; [8]): 1000 µg/mL (≈ 5100 µM) | MBC, rep 2 (Mycobacterium abscessus; [8]): 1000 µg/mL (≈ 5100 µM) | MIC, rep 1 (Mycobacterium abscessus; [8]): 250 µg/mL (≈ 1270 µM) | MIC, rep 2 (Mycobacterium abscessus; [8]): 250 µg/mL (≈ 1270 µM) | concentration resulting in a 3-log reduction of bacterial survival (MBC) (Mycobacterium abscessus; all 9 strains tested (Table 8)): 1 mg/ml | MBC lower than the MBC of the NO-liberated degradation products (fold) (Staphylococcus aureus; S. aureus): 16 × | MBC, rep 1 (Staphylococcus aureus; [9]): 0.25 | MBC, rep 2 (Staphylococcus aureus; [9]): 0.25 | MIC, rep 1 (Staphylococcus aureus; [9]): 0.125 | MIC, rep 2 (Staphylococcus aureus; [9]): 0.125 | MBC, rep 1 (Staphylococcus aureus; [10]): 0.25 mg/mL (≈ 1270 µM) | MBC, rep 2 (Staphylococcus aureus; [10]): 0.25 mg/mL (≈ 1270 µM) | MIC, rep 1 (Staphylococcus aureus; [10]): 0.125 mg/mL (≈ 637 µM) | MIC, rep 2 (Staphylococcus aureus; [10]): 0.125 mg/mL (≈ 637 µM) | MBC, rep 1 (Staphylococcus aureus; [11]): 0.125 mg/mL (≈ 637 µM) | MBC, rep 2 (Staphylococcus aureus; [11]): 0.125 mg/mL (≈ 637 µM) | MIC, rep 1 (Staphylococcus aureus; [11]): 0.125 mg/mL (≈ 637 µM) | MIC, rep 2 (Staphylococcus aureus; [11]): 0.125 mg/mL (≈ 637 µM) | MBC, rep 1 (Haemophilus influenzae): 125 µg/mL (≈ 637 µM) | MBC, rep 2 (Haemophilus influenzae): 250 µg/mL (≈ 1270 µM) | MIC, rep 1 (Haemophilus influenzae): 125 µg/mL (≈ 637 µM) | MIC, rep 2 (Haemophilus influenzae): 125 µg/mL (≈ 637 µM) | MBC, rep 1 (Streptococcus pyogenes): 62.5 µg/mL (≈ 319 µM) | MBC, rep 2 (Streptococcus pyogenes): 125 µg/mL (≈ 637 µM) | MIC, rep 1 (Streptococcus pyogenes): 31.25 µg/mL (≈ 159 µM) | MIC, rep 2 (Streptococcus pyogenes): 31.25 µg/mL (≈ 159 µM) | MBC, rep 1 (Escherichia coli): 250 µg/mL (≈ 1270 µM) | MBC, rep 2 (Escherichia coli): 250 µg/mL (≈ 1270 µM) | MIC, rep 1 (Escherichia coli): 125 µg/mL (≈ 637 µM) | MIC, rep 2 (Escherichia coli): 125 µg/mL (≈ 637 µM) | MBC, rep 1 (Acinetobacter baumannii): 250 µg/mL (≈ 1270 µM) | MBC, rep 2 (Acinetobacter baumannii): 250 µg/mL (≈ 1270 µM) | MIC, rep 1 (Acinetobacter baumannii): 63 µg/mL (≈ 321 µM) | MIC, rep 2 (Acinetobacter baumannii): 63 µg/mL (≈ 321 µM) | MBC, rep 1 (Burkholderia conocepacia): 125 µg/mL (≈ 637 µM) | MBC, rep 2 (Burkholderia conocepacia): 125 µg/mL (≈ 637 µM) | MIC, rep 1 (Burkholderia conocepacia): 63 µg/mL (≈ 321 µM) | MIC, rep 2 (Burkholderia conocepacia): 63 µg/mL (≈ 321 µM) | concentration of PAK after treatment (P. aeruginosa (PAK); 0.03125 mg/ml, pH 6.4, from 10^6, in three hours, stayed up to 25 hours (FIG. 14)): 10^2 CFU/ml | concentration of PAK after treatment (P. aeruginosa (PAK); 0.03125 mg/ml, pH 7.4, from 10^6, in eight hours, stayed up to 25 hours (FIG. 14)): 10^2 CFU/ml | reduction of the concentration of PAK (P. aeruginosa (PAK); 0.03125 mg/ml, pH 8.4 (FIG. 14)): insufficient to significantly reduce | concentration of PAK after treatment (P. aeruginosa (PAK); 0.0625 mg/ml, pH 6.4, from 10^6, in two hours, stayed up to 25 hours (FIG. 13)): 10^2 CFU/ml | concentration of PAK after treatment (P. aeruginosa (PAK); 0.125 mg/ml, pH 6.4, from 10^6, in two hours, stayed up to 25 hours (FIG. 12)): 10^2 CFU/ml | concentration of PAK after treatment (P. aeruginosa (PAK); 0.125 mg/ml, pH 7.4, from 10^6, in four hours, stayed up to 25 hours (FIG. 12)): 10^2 CFU/ml | concentration of PAK after treatment (P. aeruginosa (PAK); 0.125 mg/ml, pH 8.4, from 10^6, in six hours, stayed up to 25 hours (FIG. 12)): 10^5 CFU/ml | concentration of PAK after treatment (P. aeruginosa (PAK); FIG. 13, printed dosage 0.125 mg/ml, pH 7.4, from 10^6, in six hours, stayed up to 25 hours): 10^2 CFU/ml | concentration of PAK at 25 hours (P. aeruginosa (PAK); FIG. 13, printed dosage 0.125 mg/ml, pH 8.4, 25 hours): 10^6 CFU/ml | concentration of PAK after treatment (P. aeruginosa (PAK); FIG. 13, printed dosage 0.125 mg/ml, pH 8.4, from 10^6, in eight hours): 10^5 CFU/ml | dependence of efficacy on pH (P. aeruginosa (PAK); pH 6.4, 7.6, 8.4): pH-dependent

≈ marks a conversion by molar mass, not a printed value. Where “and” joins values, the source holds several entries; their conditions need not be identical. Equal values may be shown once.
